In ChEMBL document CHEMBL1275377, “Structure-based design, synthesis, and structure-activity relationship studies of HIV-1 protease inhibitors incorporating phenyloxazolidinones” (J Med Chem, 2010) one finds Ki data, which are given here for one molecule.

This test is described as follows: Inhibition of multidrug resistant HIV1 protease L101I, L36P, A71V, G73S, I84V, L90M mutant by FRET. Set-up: species or system Human immunodeficiency virus 1.

For `Cc1cccc(C)c1OCC(=O)N[C@@H](Cc1ccccc1)[C@@H](O)C[C@H](Cc1ccccc1)NC(=O)[C@H](C(C)C)N1CCCNC1=O` [LOPINAVIR], affinity was put at a Ki of 0.9 nM. This counts as sub-nanomolar.

As usually defined, the Ki is the dissociation constant of the complex between target and ligand, obtained from inhibition or displacement. Low readings indicate tighter binding, high ones weaker binding.
